Article PMC4645341 (Journal of Virology, 2015)

Tests used:
[1] = target: Recombinant gp41 (r-gp41; HIV-1MN isolate) (HIV-1 isolate MN, UniProt P05877); test: ELISA
[2] = target: HIV-1 JR-CSF Env on pseudotyped virus (PsV) particles (HIV-1 isolate JR-CSF, UniProt P20871); test: far-Western, overlay or dot blot

| binding result [1] | binding result [2] | Binder |
| --- | --- | --- |
| binds | binds | 4E10 WT Fab (Fab, V domains shown) VH: VQLVQSGAEVKRPGSSVTVSCKASGGSFSTYALSWVRQAPGRGLEWMGGVIPLLTITNYAPRFQGRITITADRSTSTAYLELNSLRPEDTAVYYCAREGTTGWGWLGKPIGAFAHWGQGTLVTVSS VL: EIVLTQSPGTQSLSPGERATLSCRASQSVGNNKLAWYQQRPGQAPRLLIYGASSRPSGVADRFSGSGSGTDFTLTISRLEPEDFAVYYCQQYGQSLSTFGQGTKVEVK |
| binds |  | 4E10 ΔLoop Fab (Fab, V domains shown) VH: VQLVQSGAEVKRPGSSVTVSCKASGGSFSTYALSWVRQAPGRGLEWMGGVIPLLTITNYAPRFQGRITITADRSTSTAYLELNSLRPEDTAVYYCAREGTTGSGGKPIGAFAHWGQGTLVTVSS VL: EIVLTQSPGTQSLSPGERATLSCRASQSVGNNKLAWYQQRPGQAPRLLIYGASSRPSGVADRFSGSGSGTDFTLTISRLEPEDFAVYYCQQYGQSLSTFGQGTKVEVK |
